# PMC10321483 (Chemical Science, 2023)
# By UniProt entry, the sequences of proteins in these tests, tags left out. Residues count along the entry.
# UniProt I6Y9J2, 56-408 limits assumed: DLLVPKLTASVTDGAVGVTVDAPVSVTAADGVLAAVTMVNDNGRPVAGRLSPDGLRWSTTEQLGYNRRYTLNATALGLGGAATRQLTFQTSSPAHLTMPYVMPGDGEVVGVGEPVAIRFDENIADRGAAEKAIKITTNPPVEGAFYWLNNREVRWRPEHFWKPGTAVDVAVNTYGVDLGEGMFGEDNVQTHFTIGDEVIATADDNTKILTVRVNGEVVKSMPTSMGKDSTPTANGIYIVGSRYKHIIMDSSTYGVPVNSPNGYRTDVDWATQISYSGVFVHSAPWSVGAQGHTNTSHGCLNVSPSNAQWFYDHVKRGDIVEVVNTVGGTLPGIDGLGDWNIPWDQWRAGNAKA
# Certain results were filed several times, with different values. The other results are left out here. An entry can have further records. Results that share an entry differ, and nothing given here explains why; they may come from other doses, times, organisms or constructs than stated.
# Experiments:
# LdtMt2 = LdtMt2 (Mycobacterium tuberculosis, UniProt I6Y9J2); settings: tested form: triflate
# [1] = system: M. tuberculosis (strain H37Rv) growth in THP1 cells; assay: Intracellular assay: Mtb H37Rv-Luc in THP-1 macrophages; settings: 5 days, extrapolated from dose-response curve
SMILES,pIC50 LdtMt2 (LdtMt2),MIC50 intracellular [1]
N#C[s+]1c2ccccc2c2ccccc21,< 4.4 and inactive,–
COc1ccc(CN2C(=O)C(=O)c3cc(Br)cc(C)c32)cc1OC [Compound 17],–,"15.1 ± 0.70 μM, < 50 μM, 15.1 μM"
N#Cn1c(-c2cc(F)cc(C(F)(F)F)c2)nc2ccccc21 [Compound 23],–,"12.0 ± 1.5 μM, < 50 μM, 12.0 μM"
